From patent US10456414B2, “Methods for treating HCV” (priority 2011, dated 2019) come the findings set out here.

Experiment [1] relates to HCV genotype 1b replicon cells (Huh-luc). Briefly: Antiviral activity assay in HCV Huh-luc replicon cells (Biological Example 5). It counts as cell-based. As to conditions: 3 days, IFN-α in Units per milliliter. The procedure:
Serial dilutions were added to the cells at a 1:200 dilution to achieve a final concentration of 0.5% DMSO in a total volume of 200 μL.
EC50 values were calculated by nonlinear regression analysis of replicate data sets using XLfit 4 software (IDBS, Emeryville, Calif.).
On the technique in general: A replicon is a self-replicating genome or part of one, used to study replication in cells.

Experiment [2] shares this test system. Briefly: EC50 determination in Huh-luc replicon cells (Biological Example 2). As to conditions: 3 days, IFN-α in Units per milliliter. The class given is cell-based. How it is done: Compounds were serially diluted 1:3 in 100% DMSO (Sigma). These serial dilutions were added to the cells at a 1:200 dilution to achieve a final concentration of 0.5% DMSO in a total volume of 200 μL. […] EC50 values were calculated from the resulting equations as described previously.

IFN-α: the EC50 in experiment [1] was 0.05 U/ml ± 0.04; in experiment [2], 0.105 ± .003 U/mL.
